Biological target: SARS-CoV-2 Omicron BA.4.6 spike protein (R346T, F486V) (SARS-CoV-2, UniProt P0DTC2 14-1273)
Test: cell-based or functional assay

B1: A23-58.1HC/58.1LC_93VGLTG (antibody, V domains shown)
VH: QMQLVQSGPEVKKPGTSVKVSCKASGFTFTSSAVQWVRQRQRLEWIGWIVVGSGNTNYAQKFQERVTITRDMSTSTAYMELSSLRSEDTAVYYCAAPNCSNVVCYDGFDIWGQGTMVTVSS
VL: EIVLTQSPGTLSLSPGERATLSCRASQSVSSSYLAWYQQKPGQAPRLLIYSASSRATGIPDRFSGSGSGTDFTLTISRLEPEDFAVYFCQQYVGLTGWTFGQGTKVEIK
IC50, pseudovirus neutralization: 1 nM
IC80, pseudovirus neutralization: 9 nM

B2: MX828 (bispecific antibody)
chain: QTVVTQEPSFSVSPGGTVTLTCGLSSGSVSTAYFPSWYQQTPGQAPRTLIYGTNTRSSGVPDRFSGSILGNKAALTITGAQADDESDYYCVLYMGRGIVVFGGGTKLTVLGGSSGEIVLTQSPGTLSLSPGERATLSCRASQSVSSSYLAWYQQKPGQAPRLLIYSASSRATGIPDRFSGSGSGTDFTLTISRLEPEDFAVYFCQQYVGLTGWTFGQGTKVEIKGGGGSGGSGSGGGGSASGSGQMQLVQSGPEVKKPGTSVKVSCKASGFTFTSSAVQWVRQRQRLEWIGWIVVGSGNTNYAQKFQERVTITRDMSTSTAYMELSSLRSEDTAVYYCAAPNCSNVVCYDGFDIWGQGTMVTVSSGGSSGQVQLVESGGGVVQPGRSLRLSCAASGFTLSSYGMHWVRQAPGKGLEWVAVISYDGSNKYYVDSVKGRFTISRDNSKNTLYLQMNSLRAEDTAVYYCRWAYWELLPDYYYGMDVWGQGTTVTVSSASGGSGDKTHTCPPCPAPELLGGPSVFLFPPKPKDTLMISRTPEVTCVVVDVSHEDPEVKFNWYVDGVEVHNAKTKPREEQYNSYVVSVLTVLHQDWLNGKEYKCKVSNKALPAPIEKTISKAKGQPREPQVYTLPPSRDELTKNQVSLTCLVKGFYPSDIAVEWESNGQPENNYKTTPPVLDSDGSFFKKLTVDKSRWQQGNVFSCSVLHEALHSHYTQKSLSLSPG
IC50, pseudovirus neutralization: 54 nM
IC80, pseudovirus neutralization: 300 nM

B3: MX828 + 829 (other)
chain 1: QTVVTQEPSFSVSPGGTVTLTCGLSSGSVSTAYFPSWYQQTPGQAPRTLIYGTNTRSSGVPDRFSGSILGNKAALTITGAQADDESDYYCVLYMGRGIVVFGGGTKLTVLGGSSGEIVLTQSPGTLSLSPGERATLSCRASQSVSSSYLAWYQQKPGQAPRLLIYSASSRATGIPDRFSGSGSGTDFTLTISRLEPEDFAVYFCQQYVGLTGWTFGQGTKVEIKGGGGSGGSGSGGGGSASGSGQMQLVQSGPEVKKPGTSVKVSCKASGFTFTSSAVQWVRQRQRLEWIGWIVVGSGNTNYAQKFQERVTITRDMSTSTAYMELSSLRSEDTAVYYCAAPNCSNVVCYDGFDIWGQGTMVTVSSGGSSGQVQLVESGGGVVQPGRSLRLSCAASGFTLSSYGMHWVRQAPGKGLEWVAVISYDGSNKYYVDSVKGRFTISRDNSKNTLYLQMNSLRAEDTAVYYCRWAYWELLPDYYYGMDVWGQGTTVTVSSASGGSGDKTHTCPPCPAPELLGGPSVFLFPPKPKDTLMISRTPEVTCVVVDVSHEDPEVKFNWYVDGVEVHNAKTKPREEQYNSYVVSVLTVLHQDWLNGKEYKCKVSNKALPAPIEKTISKAKGQPREPQVYTLPPSRDELTKNQVSLTCLVKGFYPSDIAVEWESNGQPENNYKTTPPVLDSDGSFFKKLTVDKSRWQQGNVFSCSVLHEALHSHYTQKSLSLSPG
chain 2: DIQMTQSPSSVSASVGDRVIITCRASQGISSWLAWYQQKPGKAPKVLIYDASSLQSGVPSRFSGSGYGTDFTLTISSLQPEDSATYYCQQAKSFPITFGQGTRLEIKGGSSGEIVLTQSPGTLSLSPGERATLSCRASQSVSSSYLAWYQQKPGQAPRLLIYSASSRATGIPDRFSGSGSGTDFTLTISRLEPEDFAVYFCQQYVGLTGWTFGQGTKVEIKGGGGSGGSGSGGGGSASGSGQMQLVQSGPEVKKPGTSVKVSCKASGFTFTSSAVQWVRQRQRLEWIGWIVVGSGNTNYAQKFQERVTITRDMSTSTAYMELSSLRSEDTAVYYCAAPNCSNVVCYDGFDIWGQGTMVTVSSGGSSGQVQLVESGGGVVQPGRSLRLSCAASGFTFSSYAFHWVRQAPGKGLEWVAVISYDGSNQYYADSVKGRFTISRDNSKNTLYLQMNSLRADDTAVYYCARDLAIAVAGTWHYYNGMDVWGQGTTVTVSSASGGSGDKTHTCPPCPAPELLGGPSVFLFPPKPKDTLMISRTPEVTCVVVDVSHEDPEVKFNWYVDGVEVHNAKTKPREEQYNSYVVSVLTVLHQDWLNGKEYKCKVSNKALPAPIEKTISKAKGQPREPQVYTLPPSRDELTKNQVSLTCLVKGFYPSDIAVEWESNGQPENNYKTTPPVLDSDGSFFKKLTVDKSRWQQGNVFSCSVLHEALHSHYTQKSLSLSPG
IC50, pseudovirus neutralization: 5 nM
IC80, pseudovirus neutralization: 10 nM

B4: MX830 (bispecific antibody)
chain: QTVVTQEPSFSVSPGGTVTLTCGLSSGSVSTAYFPSWYQQTPGQAPRTLIYGTNTRSSGVPDRFSGSILGNKAALTITGAQADDESDYYCVLYMGRGIVVFGGGTKLTVLGGSSGEIVLTQSPGTLSLSPGERATLSCRASQSVSSSYLAWYQQKPGQAPRLLIYSASSRATGIPDRFSGSGSGTDFTLTISRLEPEDFAVYFCQQYGGLTGWTFGQGTKVEIKGGGGSGGSGSGGGGSASGSGQMQLVQSGPEVKKPGTSVKVSCKASGFTFTSSAVQWVRQRQRLEWIGWIVVGSGNTNYAQKFQERVTITRDMSTSTAYMELSSLRSEDTAVYYCAAPNCSNVVCYDGFDIWGQGTMVTVSSGGSSGQVQLVESGGGVVQPGRSLRLSCAASGFTLSSYGMHWVRQAPGKGLEWVAVISYDGSNKYYVDSVKGRFTISRDNSKNTLYLQMNSLRAEDTAVYYCRWAYWELLPDYYYGMDVWGQGTTVTVSSASGGSGDKTHTCPPCPAPELLGGPSVFLFPPKPKDTLMISRTPEVTCVVVDVSHEDPEVKFNWYVDGVEVHNAKTKPREEQYNSYVVSVLTVLHQDWLNGKEYKCKVSNKALPAPIEKTISKAKGQPREPQVYTLPPSRDELTKNQVSLTCLVKGFYPSDIAVEWESNGQPENNYKTTPPVLDSDGSFFKKLTVDKSRWQQGNVFSCSVLHEALHSHYTQKSLSLSPG
IC50, pseudovirus neutralization: 138 nM
IC80, pseudovirus neutralization: 514 nM

B5: MX830 + 831 (other)
chain 1: QTVVTQEPSFSVSPGGTVTLTCGLSSGSVSTAYFPSWYQQTPGQAPRTLIYGTNTRSSGVPDRFSGSILGNKAALTITGAQADDESDYYCVLYMGRGIVVFGGGTKLTVLGGSSGEIVLTQSPGTLSLSPGERATLSCRASQSVSSSYLAWYQQKPGQAPRLLIYSASSRATGIPDRFSGSGSGTDFTLTISRLEPEDFAVYFCQQYGGLTGWTFGQGTKVEIKGGGGSGGSGSGGGGSASGSGQMQLVQSGPEVKKPGTSVKVSCKASGFTFTSSAVQWVRQRQRLEWIGWIVVGSGNTNYAQKFQERVTITRDMSTSTAYMELSSLRSEDTAVYYCAAPNCSNVVCYDGFDIWGQGTMVTVSSGGSSGQVQLVESGGGVVQPGRSLRLSCAASGFTLSSYGMHWVRQAPGKGLEWVAVISYDGSNKYYVDSVKGRFTISRDNSKNTLYLQMNSLRAEDTAVYYCRWAYWELLPDYYYGMDVWGQGTTVTVSSASGGSGDKTHTCPPCPAPELLGGPSVFLFPPKPKDTLMISRTPEVTCVVVDVSHEDPEVKFNWYVDGVEVHNAKTKPREEQYNSYVVSVLTVLHQDWLNGKEYKCKVSNKALPAPIEKTISKAKGQPREPQVYTLPPSRDELTKNQVSLTCLVKGFYPSDIAVEWESNGQPENNYKTTPPVLDSDGSFFKKLTVDKSRWQQGNVFSCSVLHEALHSHYTQKSLSLSPG
chain 2: DIQMTQSPSSVSASVGDRVIITCRASQGISSWLAWYQQKPGKAPKVLIYDASSLQSGVPSRFSGSGYGTDFTLTISSLQPEDSATYYCQQAKSFPITFGQGTRLEIKGGSSGEIVLTQSPGTLSLSPGERATLSCRASQSVSSSYLAWYQQKPGQAPRLLIYSASSRATGIPDRFSGSGSGTDFTLTISRLEPEDFAVYFCQQYGGLTGWTFGQGTKVEIKGGGGSGGSGSGGGGSASGSGQMQLVQSGPEVKKPGTSVKVSCKASGFTFTSSAVQWVRQRQRLEWIGWIVVGSGNTNYAQKFQERVTITRDMSTSTAYMELSSLRSEDTAVYYCAAPNCSNVVCYDGFDIWGQGTMVTVSSGGSSGQVQLVESGGGVVQPGRSLRLSCAASGFTFSSYAFHWVRQAPGKGLEWVAVISYDGSNQYYADSVKGRFTISRDNSKNTLYLQMNSLRADDTAVYYCARDLAIAVAGTWHYYNGMDVWGQGTTVTVSSASGGSGDKTHTCPPCPAPELLGGPSVFLFPPKPKDTLMISRTPEVTCVVVDVSHEDPEVKFNWYVDGVEVHNAKTKPREEQYNSYVVSVLTVLHQDWLNGKEYKCKVSNKALPAPIEKTISKAKGQPREPQVYTLPPSRDELTKNQVSLTCLVKGFYPSDIAVEWESNGQPENNYKTTPPVLDSDGSFFKKLTVDKSRWQQGNVFSCSVLHEALHSHYTQKSLSLSPG
IC50, pseudovirus neutralization: 4 nM
IC80, pseudovirus neutralization: 12 nM

B6: MX829 (bispecific antibody)
chain: DIQMTQSPSSVSASVGDRVIITCRASQGISSWLAWYQQKPGKAPKVLIYDASSLQSGVPSRFSGSGYGTDFTLTISSLQPEDSATYYCQQAKSFPITFGQGTRLEIKGGSSGEIVLTQSPGTLSLSPGERATLSCRASQSVSSSYLAWYQQKPGQAPRLLIYSASSRATGIPDRFSGSGSGTDFTLTISRLEPEDFAVYFCQQYVGLTGWTFGQGTKVEIKGGGGSGGSGSGGGGSASGSGQMQLVQSGPEVKKPGTSVKVSCKASGFTFTSSAVQWVRQRQRLEWIGWIVVGSGNTNYAQKFQERVTITRDMSTSTAYMELSSLRSEDTAVYYCAAPNCSNVVCYDGFDIWGQGTMVTVSSGGSSGQVQLVESGGGVVQPGRSLRLSCAASGFTFSSYAFHWVRQAPGKGLEWVAVISYDGSNQYYADSVKGRFTISRDNSKNTLYLQMNSLRADDTAVYYCARDLAIAVAGTWHYYNGMDVWGQGTTVTVSSASGGSGDKTHTCPPCPAPELLGGPSVFLFPPKPKDTLMISRTPEVTCVVVDVSHEDPEVKFNWYVDGVEVHNAKTKPREEQYNSYVVSVLTVLHQDWLNGKEYKCKVSNKALPAPIEKTISKAKGQPREPQVYTLPPSRDELTKNQVSLTCLVKGFYPSDIAVEWESNGQPENNYKTTPPVLDSDGSFFKKLTVDKSRWQQGNVFSCSVLHEALHSHYTQKSLSLSPG
IC50, pseudovirus neutralization: 4 nM
IC80, pseudovirus neutralization: 13 nM

B7: MX831 (bispecific antibody)
chain: DIQMTQSPSSVSASVGDRVIITCRASQGISSWLAWYQQKPGKAPKVLIYDASSLQSGVPSRFSGSGYGTDFTLTISSLQPEDSATYYCQQAKSFPITFGQGTRLEIKGGSSGEIVLTQSPGTLSLSPGERATLSCRASQSVSSSYLAWYQQKPGQAPRLLIYSASSRATGIPDRFSGSGSGTDFTLTISRLEPEDFAVYFCQQYGGLTGWTFGQGTKVEIKGGGGSGGSGSGGGGSASGSGQMQLVQSGPEVKKPGTSVKVSCKASGFTFTSSAVQWVRQRQRLEWIGWIVVGSGNTNYAQKFQERVTITRDMSTSTAYMELSSLRSEDTAVYYCAAPNCSNVVCYDGFDIWGQGTMVTVSSGGSSGQVQLVESGGGVVQPGRSLRLSCAASGFTFSSYAFHWVRQAPGKGLEWVAVISYDGSNQYYADSVKGRFTISRDNSKNTLYLQMNSLRADDTAVYYCARDLAIAVAGTWHYYNGMDVWGQGTTVTVSSASGGSGDKTHTCPPCPAPELLGGPSVFLFPPKPKDTLMISRTPEVTCVVVDVSHEDPEVKFNWYVDGVEVHNAKTKPREEQYNSYVVSVLTVLHQDWLNGKEYKCKVSNKALPAPIEKTISKAKGQPREPQVYTLPPSRDELTKNQVSLTCLVKGFYPSDIAVEWESNGQPENNYKTTPPVLDSDGSFFKKLTVDKSRWQQGNVFSCSVLHEALHSHYTQKSLSLSPG
IC50, pseudovirus neutralization: 3 nM
IC80, pseudovirus neutralization: 10 nM

Source: patent publication US20240109955A1 (published 2024)
